{"source": "patent US5492896A", "about": "(Bayer Aktiengesellschaft, priority 1993, dated 1996)", "assay": "general procedure: solution-phase peptide synthesis", "key": {"[1]": {"settings": "late stage modification step, hydrofluoride"}, "[2]": {"settings": "late stage modification step, hydrofluoride (after HF deprotection)"}, "[3]": {"settings": "coupling step, hydrofluoride (after HF deprotection)"}}, "data": [{"substance": "(2S)-2-{Nα -[((1S)-1-Carboxy-2-phenyl-ethyl)aminocarbonyl]-S-arginyl-S-valinyl}amino- 3-phenyl-propan-1-ol hydrofluoride", "values": [{"measurement": "step yield", "setting": "[1]", "result": 94, "unit": "%"}]}, {"substance": "N60 -[((1S)-1-Carboxy-2-phenyl-ethyl)aminocarbonyl]-N^G -(4-methyl-phenylsulphonyl)-S-arginyl-S-valinyl-S-phenylalanine", "values": [{"measurement": "step yield", "setting": "[2]", "result": 78, "unit": "%"}]}, {"substance": "(2S )-2-{N60 -[((1S )-1-Carboxy-2-phenyl-ethyl)aminocarbonyl]-N^G -(4-methyl-phenylsulphonyl)-S-arginyl-S-valinyl}amino-3-phenyl-propan-1-ol", "values": [{"measurement": "step yield", "setting": "[2]", "result": 85, "unit": "%"}]}, {"substance": "(2 S)-2-{Nα -[((2S)-1-Hydroxy-3-phenyl-prop-2-yl)aminocarbonyl]-S-arginyl-S-valinyl}amino-3-phenyl-propan-1-ol hydrofluoride", "values": [{"measurement": "step yield", "setting": "[1]", "result": 61, "unit": "%"}]}, {"substance": "(2S)-2-{Nα -[((2S)-1-Hydroxy-3-phenyl-prop-2-yl)aminocarbonyl]-N^G -(4-methyl-phenylsulphonyl)-S-arginyl-S-valinyl}-amino-3-phenyl-propan-1-ol", "values": [{"measurement": "step yield", "setting": "[2]", "result": 57, "unit": "%"}]}, {"substance": "(2S)-2-{Nα -[((1S)-1-Methoxycarbonyl-2-phenyl-ethyl)aminocarbonyl]-S-arginyl-S-valinyl}amino-3-phenyl-propan-1-ol hydrofluoride", "values": [{"measurement": "step yield", "setting": "[1]", "result": 82, "unit": "%"}]}, {"substance": "N60 -[((1S)-1-Methoxycarbonyl-2-phenyl-ethyl)aminocarbonyl]-N^G -(4-methyl-phenylsulphonyl)-S-arginyl-S-valinyl-S-phenylalanine methyl ester", "values": [{"measurement": "step yield", "setting": "[3]", "result": 85, "unit": "%"}]}, {"substance": "(2S )-2-{Nα -[((1S )-1-Methoxycarbonyl-2 -phenyl-ethyl)aminocarbonyl]-N^G -(4-methoxy-phenylsulphonyl)-S-arginyl-S-valinyl}amino-3-phenyl-propan-1-o", "values": [{"measurement": "step yield", "setting": "[3]", "result": 88, "unit": "%"}]}, {"substance": "Nα -[((1S)- 1-Methoxycarbonyl-2-phenyl-ethyl)aminocarbonyl]-S-arginyl-S-valinyl-S-phenylalanine methyl ester hydrofluoride", "values": [{"measurement": "step yield", "setting": "[1]", "result": 79, "unit": "%"}]}, {"substance": "(2S)-2-{Nα -[((1S)-1-Methoxycarbonyl-2-phenyl-ethyl)aminocarbonyl]-N^G -(4-methyl-phenylsulphonyl)-S-arginyl-S-valinyl}amino-3-phenyl-propan-1-al", "values": [{"measurement": "step yield", "setting": "late stage modification step, hydrofluoride (after HF deprotection), run 1", "result": 36, "unit": "%"}, {"measurement": "step yield", "setting": "late stage modification step, hydrofluoride (after HF deprotection), run 2", "result": 30, "unit": "%"}]}]}
